# Reference: patent US20240310360A1, “METHOD OF […] RESPONSE OF CELL GROUP TO TEST SUBSTANCE” (CANON KABUSHIKI KAISHA, priority 2023, published 2024)
# Key:
# PBMCs [1] = test: Autofluorescence imaging FAD/NADH ratio of PBMCs after antigen stimulation (Example 1); type: cell-based; details: 1 hour after stimulation, peptide solution 10 nM
# PBMCs [2] = details: PBMCs used in Example 1; confirmed in advance by the manufacturer; cited from earlier work
Substance,FAD/NADH ratio of cell group added with test substance compared with cell group without addition (PBMCs [1]),reactivity of the PBMCs to the peptide (ELISpot test) (PBMCs [2])
Flu Matrix 1 (58-66) Peptide: peptide solution manufactured by Cellular Technology Limited; peptide that binds directly to an MHC,lower in FAD/NADH ratio,react strongly
"Influenza A PA (46-54) Peptide: peptide solution manufactured by Cellular Technology Limited; peptide that binds directly to an MHC (FMYSDFHFI; UniProt P03433 46-54, looked up, fragment)",,hardly react
